A mixed list of measured activities; the numbers were collected in NIAID ChemDB.

Shared fields: tests on isolated targets; agent: HIV-1; target: Reverse transcriptase; measure: IC50

ICn: concentration for n% inhibition. Blank or dashed fields: not listed here. a–b is a range or a potency band. Rows are shuffled and stem from different studies.

SMILES	strain or isolate	read by	changes	value
CCN1c2ncc(CCOc3ccc(C(=O)O)c4c3CCN(C(C)=O)C4)cc2C(=O)N(C)c2cccnc21	WT	nucleotide incorporation / radiometric		<0.1 µM
CCc1ccc(-n2c(SCC(=O)Nc3ccc(S(N)(=O)=O)cc3C)nnc2C(F)F)c2ccccc12		nucleotide incorporation / radiometric	RT-Y181C	0.05–0.1 µM
CC(C)(C#Cc1ccc(NC(=O)CSc2nnnn2-c2ccc(C3CC3)cc2Cl)c(Cl)c1)NC(=O)CN1CCN(CCn2cccc2)CC1	WT	PicoGreen / fluorescence		<1 µM
CC(=O)Nc1ccc2c(c1)CN(c1nn3c(C4CC4)nnc3c3ccccc13)CC2	KER2008	RT activity / fluorescence		0.11 µM
CN(C)CCNC(=O)COC(C)(C)C#Cc1ccc(NC(=O)CSc2nnnn2-c2ccc(C(C)(C)C)cc2Cl)c(Cl)c1	WT	PicoGreen / fluorescence		<1 µM
O=C(CSc1nnc(Br)n1-c1ccc(C2CC2)c2ccccc12)Nc1ccc(C(=O)O)cc1Cl		nucleotide incorporation / radiometric	RT-Y188L	>0.1 µM
CCN1c2ncc(CCOc3ccc(C(=O)Nc4ccc(C(=O)O)cn4)cc3C)cc2C(=O)N(C)c2cccnc21	IIIB	nucleotide incorporation / radiometric		<0.05 µM
CC[C@H](C)[C@H](NC(=O)c1ccc(NC(=O)CSc2nnc(Br)n2-c2ccc(C3CC3)c3ccccc23)c(Cl)c1)C(=O)O		nucleotide incorporation / radiometric	RT-Y181C	0.05–0.1 µM
CC(C)(C)c1ccc(-n2nnnc2SCC(=O)Nc2ccc(OCC(=O)N3CCC(C(=O)O)CC3)cc2Cl)c(Cl)c1		PicoGreen / fluorescence	RT-K103 Y181C	<1 µM
Cc1cc(C)c2ccccc2c1-n1c(SCC(=O)Nc2ccc(S(N)(=O)=O)cc2Cl)nnc1C(F)(F)F		nucleotide incorporation / radiometric	RT-Y188L	>0.1 µM
Cc1cc(C(F)(F)F)cc(-n2nnnc2SCC(=O)Nc2ccc(C#CC(C)(C)C(=O)O)cc2Cl)c1Cl	WT	PicoGreen / fluorescence		<1 µM
CCN1c2ncc(CCOc3ccc(CC(=O)O)c4ccccc34)cc2C(=O)N(C)c2ccc(Cl)nc21		nucleotide incorporation / radiometric	RT-K103N Y181C	0.1–1 µM
Cc1cc(C)c(-n2nnnc2SCC(=O)Nc2ccc(-c3ccc(C(C)(C)C(=O)O)cc3)cc2Cl)c(Cl)c1	WT	PicoGreen / fluorescence		<1 µM
NS(=O)(=O)c1ccc(NC(=O)CSc2nnc(C(F)F)n2-c2ccc(C3CCCC3)c3ccccc23)c(Cl)c1		nucleotide incorporation / radiometric		<0.05 µM
CCN1c2ncc(CCOc3ccc(CC(C)C(=O)O)c4ccccc34)cc2C(=O)N(C)c2ccc(F)nc21		nucleotide incorporation / radiometric	RT-Y188L	>1 µM
NS(=O)(=O)c1ccc(NC(=O)CSc2nnc(Br)n2-c2ccc(F)c3ccccc23)c(Cl)c1		nucleotide incorporation / radiometric	RT-Y188L	>0.1 µM
CCc1cc(CCc2nc3ccccc3o2)c(=O)[nH]c1C		nucleotide incorporation		0.039 µM
CCN1c2ncc(CCOc3ccc(N(C)c4ccc(C(=O)O)cc4)cc3C)cc2C(=O)N(C)c2cccnc21	IIIB	nucleotide incorporation / radiometric	RT-K103N Y181C	0.05–0.1 µM
COC(C)(C)C#Cc1ccc(NC(=O)CSc2nnnn2-c2ccc(C3CC3)cc2Cl)c(Cl)c1	WT	PicoGreen / fluorescence		<1 µM
NS(=O)(=O)c1ccc(NC(=O)CSc2nnc(Br)n2-c2ccc3c4c(cccc24)CC3)c(Cl)c1		nucleotide incorporation / radiometric	RT-Y181C	<0.05 µM
O=C(O)CCNC(=O)c1ccc(NC(=O)CSc2nnc(Br)n2-c2ccc(C3CC3)c3ccccc23)c(Cl)c1		nucleotide incorporation / radiometric	RT-Y188L	>0.1 µM
CCN1c2ncc(CCOc3ccc(NC(=O)CC(C)(C)C(=O)O)cc3C)cc2C(=O)N(C)c2cccnc21	IIIB	nucleotide incorporation / radiometric	RT-K103N Y181C	>0.1 µM
CCOC(=O)CCNC(=O)c1ccc(NC(=O)CSc2nnc(Br)n2-c2ccc(C3CC3)c3ccccc23)c(Cl)c1		nucleotide incorporation / radiometric	RT-Y181C	<0.05 µM
NS(=O)(=O)c1ccc(NC(=O)CSc2nnc(C(F)F)n2-c2ccc3c4c(cccc24)CC3)c(Cl)c1		nucleotide incorporation / radiometric	RT-Y188L	>0.1 µM
CC(C)(C)c1ccc(-n2nnnc2SCC(=O)Nc2ccc(OCC(=O)NCC(=O)O)cc2Cl)c(Cl)c1		PicoGreen / fluorescence	RT-K103 Y181C	<1 µM
CCc1ccc(-n2c(Br)nnc2SCC(=O)Nc2ccc(C(=O)O)cc2C)c2ccccc12		nucleotide incorporation / radiometric	RT-Y181C	0.05–0.1 µM
CCN1c2ncc(CCOc3ccc(NC(=O)CCC(=O)O)cc3C)cc2C(=O)N(C)c2cccnc21	IIIB	nucleotide incorporation / radiometric	RT-K103N Y181C	0.05–0.1 µM
CCOC(=O)CN(C)C(=O)c1ccc(NC(=O)CSc2nnc(Br)n2-c2ccc(C3CC3)c3ccccc23)c(Cl)c1		nucleotide incorporation / radiometric	RT-Y181C	<0.05 µM
CC(CC(=O)O)NC(=O)c1ccc(NC(=O)CSc2nnnn2-c2ccc(C(C)(C)C)cc2Cl)c(Cl)c1		PicoGreen / fluorescence	RT-K103 Y181C	<1 µM
CC(C)C[C@H](NC(=O)c1ccc(NC(=O)CSc2nnc(Br)n2-c2ccc(C3CC3)c3ccccc23)c(Cl)c1)C(=O)O		nucleotide incorporation / radiometric	RT-Y181C	<0.05 µM
CC(=O)Nc1ccc2c(c1)CN(c1nn3c(C)nnc3c3ccccc13)CC2	98US_MSC5016	RT activity / fluorescence		7.6 µM
O=C(CSc1nnnn1-c1ccc(C2CC2)cc1Cl)Nc1ccc(C(=O)NCc2cccc[n+]2[O-])cc1Cl		PicoGreen / fluorescence	RT-K103 Y181C	<1 µM
Cc1cc(C2CC2)cc(C)c1-n1c(Br)nnc1SCC(=O)Nc1ccc(C(=O)O)cc1Cl		nucleotide incorporation / radiometric		<0.05 µM
CCN1c2ncc(CCOc3ccc(C(=O)NCc4ccc(C(=O)O)cc4)cc3C)cc2C(=O)N(C)c2cccnc21	IIIB	nucleotide incorporation / radiometric		<0.05 µM
CCc1ccc(-n2c(CF)nnc2SCC(=O)Nc2ccc(C(=O)O)cc2Cl)c2ccccc12		nucleotide incorporation / radiometric		<0.05 µM
CC(C)(C#Cc1ccc(NC(=O)CSc2nnnn2-c2cc(C(C)(C)C)ccc2Cl)c(Cl)c1)NC(=O)CN=c1ccn(O)cc1		PicoGreen / fluorescence	RT-K103 Y181C	<1 µM
c1ccc(-c2nnc3c4ccccc4c(N4CCc5ccccc5C4)nn23)cc1	IIIB	RT activity / fluorescence		48.2 µM
Cc1cc(C2CC2)c2ccccc2c1-n1c(Br)nnc1SCC(=O)Nc1ccc(C(=O)O)cc1Cl		nucleotide incorporation / radiometric	RT-Y181C	<0.05 µM
Cc1cc(OCC(=O)O)ccc1-c1ccc(NC(=O)CSc2nnnn2-c2ccc(C(C)(C)C)cc2Cl)c(Cl)c1		PicoGreen / fluorescence	RT-K103 Y181C	<1 µM
CCc1ccc(-n2c(Br)nnc2SCC(=O)Nc2ccc(C(=O)NCC(=O)OC)cc2Cl)c2ccccc12		nucleotide incorporation / radiometric	RT-Y188L	0.05–0.1 µM
CCN1c2ncc(CCOc3ccc(CC(=O)O)c4c3CCCC4)cc2C(=O)N(C)c2ccc(F)nc21		nucleotide incorporation / radiometric	RT-Y188L	>1 µM
CC(C)(C#Cc1ccc(NC(=O)CSc2nnnn2-c2ccc(C(C)(C)C)cc2Cl)c(Cl)c1)CO	WT	PicoGreen / fluorescence		<1 µM
CCOC(=O)c1csc(-c2ccc(OCCc3cnc4c(c3)C(=O)N(C)c3cccnc3N4CC)c(C)c2)n1	IIIB	nucleotide incorporation / radiometric		<0.05 µM
CCN1c2ncc(CCOc3ccc(CC(=O)O)c4ccccc34)cc2C(=O)Nc2c(C)ccnc21		nucleotide incorporation / radiometric	RT-K103N Y181C	>1 µM
CCc1ccc(-n2c(C)nnc2SCC(=O)Nc2ccc(S(N)(=O)=O)cc2C)c2ccccc12		nucleotide incorporation / radiometric	RT-Y181C	>0.1 µM
CC(C)(C#Cc1ccc(NC(=O)CSc2nnnn2-c2cc(C(F)(F)F)c(C3CC3)cc2Cl)c(Cl)c1)C(=O)O		PicoGreen / fluorescence	RT-K103 Y181C	<1 µM
CC(C)OC(=O)CNC(=O)c1ccc(NC(=O)CSc2nnc(Br)n2-c2ccc(C3CC3)c3ccccc23)c(Cl)c1		nucleotide incorporation / radiometric		<0.05 µM
COc1ccc2c(c1)CN(c1nn3c(C(C)C)nnc3c3ccccc13)CC2	KER2008	RT activity / fluorescence		0.44 µM
CCc1ccc(-n2c(Br)nnc2SCC(=O)Nc2ccc(C(=O)NCC3CCCCC3)cc2Cl)c2ccccc12		nucleotide incorporation / radiometric		<0.05 µM
CCN1c2ncc(CCOc3ccc(-c4ccc(C(=O)O)c(Cl)c4)cc3C)cc2C(=O)N(C)c2cccnc21	IIIB	nucleotide incorporation / radiometric		<0.05 µM
CC(C)(O)C#Cc1ccc(NC(=O)CSc2nnnn2-c2c(F)ccc(C(F)(F)F)c2Cl)c(Cl)c1	WT	PicoGreen / fluorescence		<1 µM
CCN1c2nc(C(F)(F)F)ccc2NC(=O)c2cc(CCOc3cc[n+]([O-])c4ccccc34)cnc21		nucleotide incorporation / radiometric	RT-K103N Y181C	0.084 µM
CCN1c2ncc(CCOc3ccc(C(=O)NCc4cc[n+]([O-])cc4)cc3C)cc2C(=O)N(C)c2cccnc21	IIIB	nucleotide incorporation / radiometric		<0.05 µM
CC(C)(C#Cc1ccc(NC(=O)CSc2nnnn2-c2ccc(C(C)(C)C)cc2Cl)c(Cl)c1)OCC(=O)Nc1ccccc1		PicoGreen / fluorescence	RT-K103 Y181C	<1 µM
Cc1ccc2c(C)ccc(-n3c(Br)nnc3SCC(=O)Nc3ccc(S(N)(=O)=O)cc3Br)c2c1		nucleotide incorporation / radiometric	RT-Y181C	<0.05 µM
CC(C)(C)c1ccc(-n2nnnc2SCC(=O)Nc2ccc(NC(=O)Cc3ccsc3)cc2Cl)c(Cl)c1		PicoGreen / fluorescence	RT-K103 Y181C	<1 µM
COC(=O)[C@@H](NC(=O)c1ccc(NC(=O)CSc2nnc(Br)n2-c2ccc(C3CC3)c3ccccc23)c(Cl)c1)C(C)C		nucleotide incorporation / radiometric		<0.05 µM
CC(C)(C)c1ccc(-n2nnnc2SCC(=O)Nc2ccc(C#CCN3CCOCC3)cc2Cl)c(Cl)c1	WT	PicoGreen / fluorescence		<1 µM
Cc1cc(S(N)(=O)=O)ccc1NC(=O)CSc1nnc(Br)n1-c1ccc(F)c2ccccc12		nucleotide incorporation / radiometric	RT-Y181C	>0.1 µM
CC(C)(C)c1ccc(-n2nnnc2SCC(=O)Nc2ccc(C#CCN3CCCCC3)cc2Cl)c(Cl)c1		PicoGreen / fluorescence	RT-K103 Y181C	<1 µM
Cc1ccc2c(C)cc(C)c(-n3c(SCC(=O)Nc4ccc(S(N)(=O)=O)cc4Cl)nnc3C(F)F)c2n1		nucleotide incorporation / radiometric	RT-Y188L	>0.1 µM
CC(C)(C#Cc1ccc(NC(=O)CSc2nnnn2-c2cc(C(F)(F)F)ccc2Cl)c(Cl)c1)NC(=O)c1ncccn1		PicoGreen / fluorescence	RT-K103 Y181C	<1 µM
CCN1c2ncc(CCOc3ccc(CCC(=O)O)c4ccccc34)cc2C(=O)N(C)c2ccc(F)nc21		nucleotide incorporation / radiometric	RT-Y188L	>1 µM
CC(C)(C)c1ccc(-n2nnnc2SCC(=O)Nc2ccc(-c3ncc[nH]3)cc2Cl)c(Cl)c1		PicoGreen / fluorescence	RT-K103 Y181C	<1 µM
NS(=O)(=O)c1ccc(NC(=O)CSc2nnc(C(F)F)n2-c2ccc(C3CCC3)c3ccccc23)c(Cl)c1		nucleotide incorporation / radiometric	RT-Y188L	0.05–0.1 µM

Again, the opening 9 rows:

SMILES	strain or isolate	read by	changes	value
CCN1c2ncc(CCOc3ccc(C(=O)O)c4c3CCN(C(C)=O)C4)cc2C(=O)N(C)c2cccnc21	WT	nucleotide incorporation / radiometric		<0.1 µM
CCc1ccc(-n2c(SCC(=O)Nc3ccc(S(N)(=O)=O)cc3C)nnc2C(F)F)c2ccccc12		nucleotide incorporation / radiometric	RT-Y181C	0.05–0.1 µM
CC(C)(C#Cc1ccc(NC(=O)CSc2nnnn2-c2ccc(C3CC3)cc2Cl)c(Cl)c1)NC(=O)CN1CCN(CCn2cccc2)CC1	WT	PicoGreen / fluorescence		<1 µM
CC(=O)Nc1ccc2c(c1)CN(c1nn3c(C4CC4)nnc3c3ccccc13)CC2	KER2008	RT activity / fluorescence		0.11 µM
CN(C)CCNC(=O)COC(C)(C)C#Cc1ccc(NC(=O)CSc2nnnn2-c2ccc(C(C)(C)C)cc2Cl)c(Cl)c1	WT	PicoGreen / fluorescence		<1 µM
O=C(CSc1nnc(Br)n1-c1ccc(C2CC2)c2ccccc12)Nc1ccc(C(=O)O)cc1Cl		nucleotide incorporation / radiometric	RT-Y188L	>0.1 µM
CCN1c2ncc(CCOc3ccc(C(=O)Nc4ccc(C(=O)O)cn4)cc3C)cc2C(=O)N(C)c2cccnc21	IIIB	nucleotide incorporation / radiometric		<0.05 µM
CC[C@H](C)[C@H](NC(=O)c1ccc(NC(=O)CSc2nnc(Br)n2-c2ccc(C3CC3)c3ccccc23)c(Cl)c1)C(=O)O		nucleotide incorporation / radiometric	RT-Y181C	0.05–0.1 µM
CC(C)(C)c1ccc(-n2nnnc2SCC(=O)Nc2ccc(OCC(=O)N3CCC(C(=O)O)CC3)cc2Cl)c(Cl)c1		PicoGreen / fluorescence	RT-K103 Y181C	<1 µM